{"source": "patent EP1215282A1", "about": "“METHOD OF DETECTING TRICHOTHECENE MYCOTOXINS AND REAGENT THEREOF” (dated 2001)", "key": {"[1]": {"tested_on": "antibody DON-1 of Casale, et al.", "settings": "cited from earlier work"}, "[2]": {"tested_on": "monoclonal antibody KTM-240", "experiment": "competitive ELISA, specificity of antibody KTM-240"}, "[3]": {"tested_on": "antibody of Dietrich, et al. (5B2)", "settings": "cited from earlier work"}, "[4]": {"tested_on": "anti-T-2 toxin monoclonal antibody described in Japanese Published Examined Patent Application No. 43358/93", "settings": "cited from earlier work"}, "[5]": {"tested_on": "anti-T-2 monoclonal antibody IVI-10092", "experiment": "reactivity of prior-art antibody IVI-10092 (U.S. Patent No. 4772551)", "settings": "based on the 50% inhibition value for T-2 as 100%"}}, "data": [{"compound": "CC(=O)O[C@@H]1C[C@]2(C)[C@@]3(CO)[C@H](O)C(=O)C(C)=C[C@H]3O[C@H]1[C@@]21CO1", "values": [{"measurement": "reactivity of DON-1 (in words)", "setting": "[1]", "value": "strongly reacts"}]}, {"compound": "CC(=O)OC[C@]12[C@H](O)C(=O)C(C)=C[C@H]1O[C@@H]1[C@H](O)C[C@@]2(C)[C@]12CO2", "values": [{"measurement": "reactivity of DON-1 (in words)", "setting": "[1]", "value": "does not react"}]}, {"compound": "CC1=C[C@H]2O[C@@H]3[C@H](O)C[C@](C)([C@@]2(CO)[C@H](O)C1=O)[C@]31CO1", "values": [{"measurement": "reactivity of KTM-240 (in words)", "setting": "[2]", "value": "does not react"}, {"measurement": "reactivity of DON-1 (in words)", "setting": "[1]", "value": "reacts well"}]}, {"compound": "CC(=O)OC[C@]12[C@H](OC(C)=O)C(=O)C(C)=C[C@H]1O[C@@H]1[C@H](OC(C)=O)C[C@@]2(C)[C@]12CO2", "values": [{"measurement": "reactivity of KTM-240 relative to that with 15-acetyl-DON", "setting": "[2]", "value": "twice"}, {"measurement": "reactivity of 5B2 relative to that with 3-acetyl-DON", "setting": "[3]", "value": "less than that with 3-acetyl-DON"}]}, {"compound": "CC(=O)OC[C@]12C[C@H](OC(=O)CC(C)C)C(C)=C[C@H]1O[C@@H]1[C@H](O)[C@@H](O)[C@@]2(C)[C@]12CO2", "values": [{"measurement": "cross-reactivity", "setting": "[4]", "value": "about 3%"}]}, {"compound": "CC(=O)OC[C@]12[C@H](O)C(=O)C(C)=C[C@H]1O[C@@H]1[C@H](OC(C)=O)C[C@@]2(C)[C@]12CO2", "values": [{"measurement": "reactivity of KTM-240 (in words)", "setting": "[2]", "value": "strongly reacts"}, {"measurement": "reactivity of KTM-240 relative to that with 15-acetyl-DON", "setting": "[2]", "value": "about 50 times"}, {"measurement": "reactivity of 5B2 relative to that with 3-acetyl-DON", "setting": "[3]", "value": "about 6 times"}]}, {"compound": "CC1=C[C@H]2O[C@@H]3[C@H](O)[C@@H](O)[C@](C)([C@@]2(CO)[C@H](O)C1=O)[C@]31CO1", "values": [{"measurement": "reactivity of KTM-240 (in words)", "setting": "[2]", "value": "does not react"}, {"measurement": "reactivity of DON-1 (in words)", "setting": "[1]", "value": "weakly reacts"}]}, {"compound": "CC(=O)OC[C@]12[C@H](O)C(=O)C(C)=C[C@H]1O[C@@H]1[C@H](OC(C)=O)[C@@H](OC(C)=O)[C@@]2(C)[C@]12CO2", "values": [{"measurement": "reactivity of KTM-240 (in words)", "setting": "[2]", "value": "strongly reacts"}]}, {"compound": "CC(=O)OC[C@]12C[C@H](OC(=O)CC(C)C)C(C)=C[C@H]1O[C@@H]1[C@H](OC(C)=O)[C@@H](OC(C)=O)[C@@]2(C)[C@]12CO2", "values": [{"measurement": "reactivity of IVI-10092", "setting": "[5]", "value": "ca. 25%"}]}]}
